A mixed list of measured activities; the numbers were collected in NIAID ChemDB.

Common to all: whole-cell or culture tests; species: HIV-1; read by: p24; read-out: EC50

a–b is a range or a potency band. Blank or dashed fields: not listed here. Rows are shuffled and stem from different studies. ECn is the concentration giving n% inhibition of infection, replication or growth.

SMILES	changes	strain	cells	value
CNC(=O)c1cc(F)ccc1CNC(=O)c1nc(N2CCCCS2(=O)=O)c2cccnc2c1O	-	-	MT-4	<5 µM
C=C(C)COC(=O)N[C@@H](Cc1ccccc1)[C@H](O)CN(CC(C)C)S(=O)(=O)c1ccc(Cl)c(Cl)c1	-	IIIB	CEM	<10 µM
CCN1c2ncc(CCOc3cccc4c3ccc[n+]4[O-])cc2C(=O)Nc2c(C)cc(Cl)nc21	-	IIIB	C8166	0.00037 µM
CC1(C)Oc2ccc3ccc(=O)oc3c2[C@@H](OC(=O)C23CCC(C)(C(=O)O2)C3(C)C)[C@H]1OC(=O)C12CCC(C)(C(=O)O1)C2(C)C	PR-M46I L63P V82T I84V	PRMDR	MT-4	0.09 µM
CCCCCCCCCCCCCCCCCCOC[C@H](COP(=O)(O)C(=O)O)OC	-	LAI	MT-2	280 µM
NC(=O)C[C@H](NC(=O)c1ccc2ccccc2n1)C(=O)N[C@@H](Cc1ccccc1)[C@H](O)CN(Cc1ccccc1)S(=O)(=O)c1cccc(S(N)(=O)=O)c1	-	IIIB	CEM	<0.101 µM
CC(C)=CCOc1cc(NC(=S)c2ccsc2C)ccc1Cl	RT-V106I	NL4-3	CEM + CEM-SS	0.08 µM
O=C1CCC(=O)N1CCCCCCc1ccc2c3ccccc3c3ccccc3c2c1	-	IIIB	PBMC	0.8 µM
O=C(NC1CCC1)c1[nH]c(=O)c(O)c2c1CCN(Cc1ccc(F)cc1)C2=O	-	-	MT-4	<10 µM
NS(=O)(=O)c1ccc(NC(=O)CNc2cccc(Oc3ccccc3)c2)c(Cl)c1	-	-	MT-4	<20 µM
COC(=O)c1cc(OC)c2c(OC)cc(N)cc2n1	-	-	-	0.12 µg/mL
Cc1ccc(CNC(=O)c2nc3n(c(=O)c2O)CCN(C2CC2)CC3N(C)C(=O)C(=O)N(C)C)cc1Cl	-	-	MT-4	<1 µM
COC(=O)c1cc2c(OC)cccc2[nH]1	-	-	-	4.12 µg/mL
O=C(NC1CC1)c1[nH]c(=O)c(O)c2c1CCN(Cc1ccc(F)cc1)C2=O	-	-	MT-4	<10 µM
Cn1c(COc2ccc(Cl)c(Oc3cc(Cl)cc(C#N)c3)c2)nc2ccccc21	-	-	MT-4	<20 µM
Nc1nccc2c1ncn2[C@@H]1C=C(CO)[C@@H](O)[C@H]1O	-	-	U1	0.02–0.2 µM
Cc1ccc(-c2ccc3c(c2)C=C(C(=O)Nc2ccc(C[N+](C)(C)C4CCOCC4)cc2)CCC3)cc1	-	Du204 CLADE C	PBMC	<1 µM
O=C(N[C@@H](Cc1ccccc1)[C@H](O)CN(CC1CCCC1)S(=O)(=O)c1cccnc1)O[C@H]1CCOC1	-	IIIB	CEM	<1 µM
CCCCCCCCCCCCOP(=O)(OCC(=O)OCC)OC[C@H]1O[C@@H](n2cc(C)c(=O)[nH]c2=O)C[C@@H]1N=[N+]=[N-]	-	RF	C8166	3 µM
CN(C)CC1NCCn2c1nc(C(=O)NCc1ccc(F)cc1)c(O)c2=O	-	-	MT-4	<50 µM
CC(=O)Nc1ccc(S(=O)(=O)N(CC(C)C)C[C@@H](O)[C@H](Cc2ccccc2)NC(=O)O[C@@H]2CCOC2)cc1	-	IIIB	CEM	<1 µM
CN1CCn2c(nc(C(=O)NCc3ccc(F)cc3)c(O)c2=O)C1CN(C)S(=O)(=O)N(C)C	-	-	MT-4	1–10 µM
COC(=O)c1cc2cc(N)cc(OC)c2[nH]1	-	-	-	0.84 µg/mL
CC(C)CN(C[C@@H](O)[C@H](Cc1ccccc1)NC(=O)O[C@H]1CCOC1)S(=O)(=O)c1cccnc1	-	IIIB	CEM	<1 µM
CC(C)(C)OC(=O)N[C@@H](Cc1ccccc1)[C@H](O)CN(CC1CCCC1)S(=O)(=O)c1ccc(Cl)c(Cl)c1	-	IIIB	CEM	<1.001 µM
CNC(=O)c1cc(F)ccc1CNC(=O)c1nc(N2CCCN(C)S2(=O)=O)c2cccnc2c1O	-	-	MT-4	<5 µM
Cc1ccc(-c2nnc(COc3ccc(Cl)c(Oc4cc(Cl)cc(C#N)c4)c3)o2)cc1	-	-	MT-4	<20 µM
CC(=O)Nc1cc(S(=O)(=O)N(CC(C)C)C[C@@H](O)[C@H](Cc2ccccc2)NC(=O)OC2CCOC2)ccc1F	-	IIIB	CEM	<1 µM
CC(C)CN(C[C@@H](O)[C@H](Cc1ccccc1)NC(=O)O[C@H]1CCOC1)S(=O)(=O)c1ccc2nonc2c1	-	IIIB	CEM	<0.101 µM
Nc1ncnc2c1ncn2[C@@H]1C=C(CO)[C@@H](O)[C@H]1O	-	18190 unpaired	PBMC	0.0251 µM
COc1cc(N)cc2[nH]c(N)cc(=O)c12	-	-	-	0.08 µg/mL
Cc1ccc(C)n1-c1ccc(C(=O)O)c(O)c1	-	93TH051 X4R5 CLADE E	PBMC + MT-2	4.87 µM
CN(C)C(=O)c1cc(F)ccc1CNC(=O)c1nc(N(C)S(C)(=O)=O)c2cccnc2c1O	-	-	MT-4	<5 µM
CC[C@H](C)[C@H](NC(=O)OCc1ccccc1)C(=O)N[C@@H](Cc1ccccc1)[C@H](O)CN(CC(C)C)S(=O)(=O)c1ccc(F)c(NC(C)=O)c1	-	IIIB	CEM	<0.101 µM
N#Cc1cccc(Oc2cc(Cl)cc(OCC(=O)Nc3ccc(S(N)(=O)=O)cc3Cl)c2)c1	-	-	MT-4	<20 µM
CCCOP(=O)(OCC(=O)OCC)OC[C@H]1O[C@@H](n2cc(C)c(=O)[nH]c2=O)C[C@@H]1N=[N+]=[N-]	-	RF	C8166	0.5 µM
CN(C)C(=O)C(=O)N1CCN2CCn3c(nc(C(=O)NCc4ccc(F)cc4)c(O)c3=O)C1C2	-	-	MT-4	<50 µM
O=C(O)CCCCCNC1c2ccc3cc4c5c6c(cc7ccc8cc9cc1c1c9c9c8c7c6c9c6c1c2c3c56)C4	-	-	MT-4	0.5 µM
CN(CC(CCN1CCC(CCCc2ccccc2)CC1)c1ccccc1)S(=O)(=O)c1cccs1	-	YU2	PBMC	>10 µM
CC(C)CN(C[C@@H](O)[C@H](Cc1ccccc1)NC(=O)O[C@H]1CCOC1)S(=O)(=O)c1ccc(-c2ccon2)s1	-	IIIB	CEM	<0.101 µM
CN(c1[nH]c(=O)c(O)c2c1CCN(Cc1ccc(F)cc1)C2=O)S(C)(=O)=O	-	-	MT-4	<10 µM
CC(=O)Nc1ccc(S(=O)(=O)N(CC(C)C)C[C@@H](O)[C@H](Cc2ccccc2)NC(=O)OCc2ccccc2)cc1	-	IIIB	CEM	<10 µM
NC(=O)c1[nH]c2ccc(Cl)cc2c1S(=O)(=O)c1ccccc1	-	IIIB WT	C8166	<0.0007 µM
NC(=O)c1[nH]c2ccc(Cl)cc2c1S(=O)(=O)c1ccccc1	-	IIIB	C8166	<0.007 µM
N#Cc1cc(Cl)cc(Oc2cc(OCC(=O)Nc3ccc(S(N)(=O)=O)cc3Cl)ccc2Cl)c1	-	-	MT-4	<20 µM
CN(CC(CCN1CCC(CCCc2ccccc2)CC1)c1ccccc1)S(=O)(=O)c1ccc(-c2ccccn2)s1	-	YU2	PBMC	<3.1 µM
N#Cc1cc(Cl)cc(Oc2cc(Cl)cc(OCc3nc4cccc(Cl)c4s3)c2)c1	-	-	MT-4	<20 µM
CC(C)[C@H](NC(=O)[C@H](CO)NC(=O)[C@@H](N)CS)C(=O)N[C@H](C(=O)N[C@@H](CS)C(=O)NCC(=O)O)[C@@H](C)O	-	BaL	PBMC(PHA STIM.) + PBMC	>1.32 µM
NC(=NCCC[C@H](N)C(=O)O)NC1c2ccc3cc4c5c6c(cc7ccc8cc9cc1c1c9c9c8c7c6c9c6c1c2c3c56)C4	-	-	PBMC	230 µM
CC(C)CN(C[C@@H](O)[C@H](Cc1ccccc1)NC(=O)O[C@H]1CCOC1)S(=O)(=O)c1ccc(-c2ccccn2)s1	-	IIIB	CEM	<1.001 µM
CC(C)CN(C[C@@H](O)[C@H](Cc1ccccc1)NC(=O)OC(C)(C)C)S(=O)(=O)c1ccccc1	-	IIIB	CEM	<10 µM
CC1c2nc(C(=O)NCc3ccc(F)cc3)c(O)c(=O)n2CCN1Cc1cocn1	-	-	MT-4	<1 µM
Cc1cc(C)cc(S(=O)(=O)c2c(C(=O)NCC(=O)NN)[nH]c3ccc(Cl)cc23)c1	-	IIIB	C8166	<0.03 µM
O=C(NCc1ccc(F)cc1)c1nc2n(c(=O)c1O)CCN(C(=O)C(F)(F)F)C2	-	-	MT-4	<50 µM
Cc1cc(C)cc(S(=O)(=O)c2c(C(=O)NC(C)C(=O)NN)[nH]c3ccc(Cl)cc23)c1	-	EFV-resistant (RT K103R V179D P225H)	C8166	<0.7 µM
N#Cc1cc(C#N)cc(Oc2cc(Cl)cc(OCC(=O)Nc3ccc(S(N)(=O)=O)cc3Cl)c2)c1	-	-	MT-4	<20 µM
CC(C)CN(C[C@@H](O)[C@H](Cc1ccccc1)NC(=O)O[C@@H]1CCOC1)S(=O)(=O)c1ccc([N+](=O)[O-])cc1	-	IIIB	CEM	<1 µM
COC(=O)Cc1ccc2c(OC)cc(N)cc2n1	-	-	-	0.34 µg/mL
NNC(=O)c1[nH]c2ccc(Cl)cc2c1S(=O)(=O)c1ccccc1	-	EFV-resistant (RT K103R V179D P225H)	C8166	<3 µM
CC(=O)N1CCc2cc(S(=O)(=O)N(CC3CCCC3)C[C@@H](O)[C@H](Cc3ccccc3)NC(=O)O[C@H]3CCOC3)ccc21	-	IIIB	CEM	<0.101 µM
CC(C)NC(=O)c1[nH]c(=O)c(O)c2c1CCN(Cc1ccc(F)cc1)C2=O	-	-	MT-4	<10 µM
COC(=O)N[C@@H](Cc1ccccc1)[C@H](O)CN(CC(C)C)S(=O)(=O)c1ccc(F)cc1	-	IIIB	CEM	<1.001 µM
CC(=O)CCC(=O)NCCCOCCOCCCNC(=O)CNC(=O)[C@H](CS)NC(=O)[C@@H](NC(=O)[C@@H](NC(=O)[C@H](CO)NC(=O)[C@@H](N)CS)C(C)C)[C@@H](C)O	-	BaL	PBMC(PHA STIM.) + PBMC	>1.32 µM
NC(=O)CNC(=O)c1[nH]c2ccc(Cl)cc2c1S(=O)(=O)c1ccccc1	-	EFV-resistant (RT K103R V179D P225H)	C8166	<2.7 µM
CC(C)NC(=O)c1cc(F)ccc1CNC(=O)c1nc(N2CCCCS2(=O)=O)c2cccnc2c1O	-	-	MT-4	<5 µM
CCCOP(=O)(OC[C@H]1O[C@@H](n2cc(C)c(=O)[nH]c2=O)C[C@@H]1N=[N+]=[N-])OC(C)C(=O)OC	-	RF	C8166	10 µM

10 of the rows above, restated:

SMILES	changes	strain	cells	value
CC(C)CN(C[C@@H](O)[C@H](Cc1ccccc1)NC(=O)O[C@H]1CCOC1)S(=O)(=O)c1cccnc1	-	IIIB	CEM	<1 µM
Cc1ccc(C)n1-c1ccc(C(=O)O)c(O)c1	-	93TH051 X4R5 CLADE E	PBMC + MT-2	4.87 µM
CN(CC(CCN1CCC(CCCc2ccccc2)CC1)c1ccccc1)S(=O)(=O)c1ccc(-c2ccccn2)s1	-	YU2	PBMC	<3.1 µM
CN(c1[nH]c(=O)c(O)c2c1CCN(Cc1ccc(F)cc1)C2=O)S(C)(=O)=O	-	-	MT-4	<10 µM
COC(=O)N[C@@H](Cc1ccccc1)[C@H](O)CN(CC(C)C)S(=O)(=O)c1ccc(F)cc1	-	IIIB	CEM	<1.001 µM
CNC(=O)c1cc(F)ccc1CNC(=O)c1nc(N2CCCCS2(=O)=O)c2cccnc2c1O	-	-	MT-4	<5 µM
CC(=O)Nc1cc(S(=O)(=O)N(CC(C)C)C[C@@H](O)[C@H](Cc2ccccc2)NC(=O)OC2CCOC2)ccc1F	-	IIIB	CEM	<1 µM
CN(CC(CCN1CCC(CCCc2ccccc2)CC1)c1ccccc1)S(=O)(=O)c1cccs1	-	YU2	PBMC	>10 µM
CC(C)[C@H](NC(=O)[C@H](CO)NC(=O)[C@@H](N)CS)C(=O)N[C@H](C(=O)N[C@@H](CS)C(=O)NCC(=O)O)[C@@H](C)O	-	BaL	PBMC(PHA STIM.) + PBMC	>1.32 µM
CC1c2nc(C(=O)NCc3ccc(F)cc3)c(O)c(=O)n2CCN1Cc1cocn1	-	-	MT-4	<1 µM